Test system: PRV (Pseudorabies virus)

Q: How did the “TI (therapeutic index = CC50/IC50)” value turn out when `CC(C)=CC[C@]12O[C@@]1(C/C=C(\C)CC/C=C(\C)C(=O)O)C(=O)c1cc(O)cc(O)c1C2=O` [Compound 6, A80915G-8″-acid] was run?
A: < 2.0

From article PMC9861092, “Napyradiomycin A4 and Its Relate Compounds, a New Anti-PRV Agent and Their Antibacterial Activities, from Streptomyces kebangsaanensis WS-68302” (Molecules, 2023)
